According to patent publication US7998969B2, “Non-nucleoside reverse transcriptase inhibitors” (Roche Palo Alto LLC, priority 2006, dated 2011):

Legend:
[1] = tested on: wild-type laboratory strain HIV-1HXB2; test: Recombinant HIV-1 Antiviral Assay (MTT cell viability assay with MT-4 cells); format: cell-based; conditions: read-out: Antiviral Activity IC50; MT-4 cells infected with HIV-1HXB2, MTT readout after 5 days
Protocol: Recombinant HIV-1 Antiviral Assay
The sensitivity of a wild-type laboratory strain HIV-1HXB2 to described compounds was determined by the 3-[4,5-dimethylthiazol-2yl]-2,5-diphenyltetrazolium bromide (MTT) cell viability assay with MT-4 cells (R. Pauwels et al., “Rapid and automated tetrazolium-based colorimetric assay for the detection of anti-HIV compounds,” J. Virological Methods 1988 20:309-321). Briefly, MT-4 cells were incubated with virus (MOI 0.0001) for 1 h at 37° C. and then resuspended at 7.5×10^5/mL in RPMI 1640 (with out phenol) (Gibco) with 10% FCS and antibiotics and plated out onto a 96 well plate (Corning Costar, USA). After 5 days incubation 20 μL of MTT (Sigma-Aldrich) (5 mg/mL in PBS) was added and the plates were incubated for 2 h before the addition of 170 μL of acidified IPA. The absorbance was measured at 540 nm and the TCID50 determined by Spearman-Karber method.

[2] = target: HIV-1 reverse transcriptase (HIV-RT enzyme) (Human immunodeficiency virus type 1 group M subtype B, UniProt P03366); test: HIV-1 Reverse Transcriptase Assay Inhibitor IC50 Determination (RNA-dependent DNA polymerase activity, SPA); conditions: read-out: HIVRT inhibition IC50, 30 min at 30°
Protocol: HIV-1 Reverse Transcriptase Assay Inhibitor IC50 Determination
RNA-dependent DNA polymerase activity was measured using a biotinylated primer oligonucleotide and tritiated dNTP substrate. Newly synthesized DNA was quantified by capturing the biotinylated primer molecules on streptavidin coated Scintillation Proximity Assay (SPA) beads (Amersham). The sequences of the polymerase assay substrate were: 18 nt DNA primer, 5′-Biotin/[…] -3′; 47 nt RNA template, 5′-[…] -3′. The biotinylated DNA primer was obtained from the Integrated DNA Technologies Inc. and the RNA template was synthesized by Dharmacon. The DNA polymerase assay (final volume 50 μl) contained 32 nM biotinylated DNA primer, 64 nM RNA substrate, dGTP, dCTP, dTTP (each at 5 μM), 103 nM [^3H]-dATP (specific activity=[…]), in 45 mM Tris-HCl, pH 8.0, 45 mM NaCl, 2.7 mM Mg(CH3COO)2, 0.045% Triton X-100 w/v, 0.9 mM EDTA. The reactions contained 5 μl of serial compound dilutions in 100% DMSO for IC50 determination and the final concentrations of DMSO were 10%. Reactions were initiated by the addition of […] of the HIV-RT enzyme (final concentrations of 1-3 nM). Protein concentrations were adjusted to provide linear product formation for at least 30 min of incubation. […] The beads were left to settle overnight and the SPA signals were counted in a 96-well top counter-NXT (Packard). […]

Q: `Cc1cc(C#N)cc(Cl)c1Oc1ccnc(NC2CCN(Cc3ccc(S(N)(=O)=O)cc3Cl)CC2)n1` was tested. Which IC50 [1] did it give?
A: Its IC50 is 3.9 nM.

Q: What about the IC50 [2] of the same compound?
A: The IC50 was 26.8 nM.
